Anti-infective test results gathered from many reports (values: NIAID ChemDB through PubChem).

Shared fields: tests in culture; agent: Mycobacterium avium

Lines come from different laboratories, so protocols vary. An empty or dashed field is not shown. MIC50, MIC90 and the like: level of inhibition, or share of isolates inhibited.

structure	setting	method	endpoint	strain or isolate	result
C[C@@H]1CN(c2c(F)c(N)c3c(=O)c(C(=O)O)cn(C4CC4)c3c2F)C[C@H](C)N1			Median MIC	ATCC 25291	8 µg/mL
CCN(CC)c1nc2c(s1)c1c(O)c3c(O)c(C)c4c(c32)C(=O)[C@@](C)(O/C=C/[C@H](OC)[C@@H](C)[C@@H](OC(C)=O)[C@H](C)[C@H](O)[C@H](C)[C@@H](O)[C@@H](C)/C=C/C=C(/C)C(=O)N1)O4			MIC90	50 strains	1 µg/mL
O=C(Nc1ccc(Cl)c(Cl)c1)c1cc(Cl)ccc1OP(=O)(Oc1ccccc1)Oc1ccccc1	14 d		MIC	MY330/88	16 µM
CC(C)N=c1cc2n(-c3ccc(Cl)cc3)c3ccccc3nc-2cc1Nc1ccc(Cl)cc1			Median MIC	ATCC 25291	0.47 µg/mL
CO[C@H]1/C=C/O[C@@]2(C)Oc3c(C)c(O)c4c(O)c(c5c(c4c3C2=O)NC2(CCN(CC(C)C)CC2)N=5)=NC(=O)/C(C)=C\C=C\[C@H](C)[C@H](O)[C@@H](C)[C@@H](O)[C@@H](C)[C@H](OC(C)=O)[C@@H]1C			MIC	6-28	<0.15 µg/mL
N[C@@H]1CONC1=O			MIC	3090-C clarithromycin-resistant	16 µg/mL
O=C(Nc1ccc(Cl)cc1)c1cc(Cl)ccc1OP(=O)(Oc1ccccc1)c1ccccc1	7 d		MIC	MY330/88	16 µM
Cc1cc(NS(=O)(=O)c2ccc(NC(=O)N3CCC3)cc2)no1	14 d	broth dilution / absorbance	MIC100	330/88	125 µM
CO[C@H]1/C=C/O[C@@]2(C)Oc3c(C)c(O)c4c(O)c(c5c(c4c3C2=O)NC2(CCN(CC(C)C)CC2)N=5)=NC(=O)/C(C)=C\C=C\[C@H](C)[C@H](O)[C@@H](C)[C@@H](O)[C@@H](C)[C@H](OC(C)=O)[C@@H]1C			MIC	Isolate 90-0842	>1 µg/mL
CC1CN(c2c(F)c(N)c3c(=O)c(C(=O)O)cn(C4CC4)c3c2F)CCN1C			MIC90	14 strains	2 µg/mL
CCC[C@@H]1C[C@@H](C(=O)N[C@@H]([C@H]2O[C@H](SC)[C@H](O)[C@@H](O)[C@H]2O)[C@@H](C)O)N(C)C1			Median MIC	ATCC 25291	128 µg/mL
O=C(O)c1cn(C2CC2)c2c(F)c(N3CCN4CCC3C4)c(F)cc2c1=O			MIC	PI4/44	0.5 µg/mL
CO[C@H]1/C=C/O[C@@]2(C)Oc3c(C)c(O)c4c(O)c(c5c(c4c3C2=O)NC2(CCN(CC(C)C)CC2)N=5)=NC(=O)/C(C)=C\C=C\[C@H](C)[C@H](O)[C@@H](C)[C@@H](O)[C@@H](C)[C@H](OC(C)=O)[C@@H]1C			Median MIC	ATCC 25291	0.56 µg/mL
O=C1c2cc(Cl)ccc2OP(=O)(c2ccccc2)N1c1ccc(C(F)(F)F)cc1	14 d		MIC	MY330/88	8 µM
CC[C@H]1OC(=O)[C@H](C)[C@@H](O[C@H]2C[C@@](C)(OC)[C@@H](O)[C@H](C)O2)[C@H](C)[C@@H](O[C@@H]2O[C@H](C)C[C@H](N(C)C)[C@H]2O)[C@](C)(O)C[C@@H](C)CN(C)[C@H](C)[C@@H](O)[C@]1(C)O			MIC	3090-C clarithromycin-resistant	>512 µg/mL
CC[C@H]1OC(=O)[C@H](C)[C@@H](O[C@H]2C[C@@](C)(OC)[C@@H](O)[C@H](C)O2)[C@H](C)[C@@H](O[C@@H]2O[C@H](C)C[C@H](N(C)C)[C@H]2O)[C@](C)(OC)C[C@@H](C)C(=O)[C@H](C)[C@@H](O)[C@]1(C)O	pH 7.4	broth dilution / radiometric	MIC	211	1 µg/mL
c1cncc(CSc2nc3ccccc3[nH]2)c1			MIC	MY330/88	1000 µM
CNC(=O)Nc1ccc(S(=O)(=O)Nc2cc(C)on2)cc1	21 d	broth dilution / absorbance	MIC100	330/88	125 µM
Cc1cc(-c2cc3c(cc2F)c(=O)c(C(=O)O)cn3C2CC2)cc(C)n1			MIC90	55 strains	3.85 µg/mL
NC(=S)c1cc(SCc2ccccn2)ccn1			MIC	MY330/88	1000 µM
CC(C)(C)n1cc(C(=O)O)c(=O)c2cc(F)c(N3CCNCC3)nc21			MIC90	14 strains	4 µg/mL
O=c1[nH]c2ccccc2c(=O)n1-c1ccccc1			MIC	MY330/88	>500 µM
O=C(Nc1ccc(C(F)(F)F)cc1)c1cc(Cl)ccc1OP(=O)(Oc1ccccc1)Oc1ccccc1	14 d		MIC	MY330/88	8 µM
O=C(Nc1ccc(F)cc1)c1ccccc1O			MIC	MY330/88	62 µM
O=C(Nc1ccc(Br)cc1)c1cc(Cl)ccc1OP(=O)(OCc1ccccc1)OCc1ccccc1	14 d		MIC	MY330/88	62.5 µM
CC[C@H]1OC(=O)[C@H](C)[C@@H](O[C@H]2C[C@@](C)(OC)[C@@H](O)[C@H](C)O2)[C@H](C)[C@@H](O[C@@H]2O[C@H](C)C[C@H](N(C)C)[C@H]2O)[C@](C)(OC)C[C@@H](C)C(=O)[C@H](C)[C@@H](O)[C@]1(C)O			MIC	1435	1 µg/mL
O=C1c2cc(Cl)ccc2OP(=O)(c2ccccc2)N1c1ccc(Cl)cc1	7 d		MIC	MY330/88	16 µM
Cc1cc(NS(=O)(=O)c2ccc(NC(=O)Nc3ccc(S(=O)(=O)Nc4cc(C)on4)cc3)cc2)no1	14 d	broth dilution / absorbance	MIC100	330/88	32 µM
O=c1oc2ccccc2c(=O)n1-c1cccc(Cl)c1			MIC	MY330/88	31 µM
Cc1cc(NS(=O)(=O)c2ccc(NC(=O)N(C(C)C)C(C)C)cc2)no1	14 d	broth dilution / absorbance	MIC100	330/88	>1000 µM
Nc1ccccc1C(=O)Nc1cccc([N+](=O)[O-])c1			MIC	MY330/88	>250 µM
CCc1cc(C(N)=S)ccn1			MIC	453-C clarithromycin-resistant	>8 µg/mL
c1ccc(CSc2nc3ccccc3o2)nc1			MIC	MY330/88	125 µM
CO[C@H]1/C=C/O[C@@]2(C)Oc3c(C)c(O)c4c(=O)c(c5oc6cc(N7CCN(CC(C)C)CC7)cc(=O)c6nc5c4c3=C2O)NC(=O)/C(C)=C\C=C\[C@H](C)[C@H](O)[C@@H](C)[C@@H](O)[C@@H](C)[C@H](OC(C)=O)[C@@H]1C			MIC	3354	0.062 µg/mL
Cc1ccc2nc(SCc3ccccn3)[nH]c2c1			MIC	MY330/88	250 µM
NC1CCN(c2c(F)cc3c(=O)c(C(=O)O)cn(C4CC4)c3c2F)C1			MIC	PI4/44	8 µg/mL
CCn1cc(C(=O)O)c(=O)c2cc(F)c(N3CCNCC3)cc21			MIC50	13 strains	>32 µg/mL
c1ccc2c(CSc3nc4ccccc4[nH]3)cccc2c1			MIC	MY330/88	125 µM

A second listing of 3 rows from above:

structure | setting | method | endpoint | strain or isolate | result
Cc1cc(-c2cc3c(cc2F)c(=O)c(C(=O)O)cn3C2CC2)cc(C)n1 |  |  | MIC90 | 55 strains | 3.85 µg/mL
O=C(Nc1ccc(F)cc1)c1ccccc1O |  |  | MIC | MY330/88 | 62 µM
CO[C@H]1/C=C/O[C@@]2(C)Oc3c(C)c(O)c4c(O)c(c5c(c4c3C2=O)NC2(CCN(CC(C)C)CC2)N=5)=NC(=O)/C(C)=C\C=C\[C@H](C)[C@H](O)[C@@H](C)[C@@H](O)[C@@H](C)[C@H](OC(C)=O)[C@@H]1C |  |  | MIC | Isolate 90-0842 | >1 µg/mL